The record followed here is BindingDB's records for doi:10.1021/jm970374b (1998).

The target in this experiment is Neuraminidase (Influenza A virus (strain A/Singapore/1/1957 H2N2), UniProt Q6XUE4).
As a reminder, the IC50 is the midpoint of a concentration-inhibition curve. A low value points to greater potency in that assay. Regarding `CC(=O)N[C@@H]1[C@@H](N)C=C(C(=O)O)O[C@H]1C(=O)N(C)C` [(2R,3R,4S)-4-amino-2-(dimethylcarbamoyl)-3-acetamido-3,4-dihydro-2H-pyran-6-carboxylic acid], half-maximal inhibition (IC50) required 2400 nM.

For `CCCCN(CCC)C(=O)[C@@H]1OC(C(=O)O)=C[C@H](N)[C@H]1NC(C)=O` [(2R,3R,4S)-4-amino-2-[butyl(propyl)carbamoyl]-3-acetamido-3,4-dihydro-2H-pyran-6-carboxylic acid], the half-inhibitory concentration (IC50) is 4 nM.

In turn, `CCCCCCCCCN(CCC)C(=O)[C@@H]1OC(C(=O)O)=C[C@H](N)[C@H]1NC(C)=O` [(2R,3R,4S)-4-amino-3-acetamido-2-[nonyl(propyl)carbamoyl]-3,4-dihydro-2H-pyran-6-carboxylic acid] came in with an IC50 of 23 nM.
